Pooled drug test results. Numbers come from NIAID ChemDB, via PubChem.

Common to all: whole-cell or culture tests; agent: Candida albicans; method: agar diffusion; read-out: zone

Conditions beyond the fields shown may differ between rows. Zones are inhibition diameters on agar. An empty or dashed field is not shown.

smiles,strain,dose,result
COc1ccc(-c2oc3ccccc3c(=O)c2OC(C)=O)cc1OC,-,100 µg/mL,14 mm
Cc1ccc(N2NOC(=O)C2S(=O)(=O)Nc2nc(-c3ccc(F)cc3F)cs2)cc1,MTCC 227,250 µg/mL,21 mm
CC(=O)Oc1c(-c2ccccc2)oc2ccc(Cl)cc2c1=O,-,100 µg/mL,17 mm
Cc1ccc(N2NOC(=O)C2S(=O)(=O)Nc2ccc(-n3c(-c4ccc(Cl)cc4)nc4ccccc4c3=O)cc2)cc1,MTCC 227,250 µg/mL,24 mm
CC(=O)Oc1c(-c2ccccc2)oc2ccccc2c1=O,-,100 µg/mL,15 mm
C(/C=C/c1ccccc1)=NCCNCCN=C/C=C/c1ccccc1.N#C[S][Hg][S]C#N,-,10000 µg/mL,24 mm
Cc1ccc(N2NOC(=O)C2S(=O)(=O)Nc2ccc(-n3c(-c4cccc([N+](=O)[O-])c4)nc4ccccc4c3=O)cc2)cc1,MTCC 227,250 µg/mL,23 mm
CC[C@H]1OC(=O)[C@H](C)[C@@H](O[C@H]2C[C@@](C)(OC)[C@@H](O)[C@H](C)O2)[C@H](C)[C@@H](O[C@@H]2O[C@H](C)C[C@H](N(C)C)[C@H]2O)[C@](C)(O)C[C@@H](C)C(=O)[C@H](C)[C@@H](O)[C@]1(C)O,ATCC 10231,15 µg,6 mm
C(/C=C/c1ccccc1)=NCCNCCN=C/C=C/c1ccccc1.[Br][Hg][Br],-,30000 µg/mL,26 mm
Cc1ccc(N2NOC(=O)C2S(=O)(=O)Nc2nc(-c3ccc(Br)cc3)cs2)cc1,MTCC 227,250 µg/mL,21 mm
O=c1c(O)c(-c2ccc(F)cc2)oc2ccc(Cl)cc12,-,100 µg/mL,15 mm
CN(C)[C@@H]1C(=O)C(C(N)=O)=C(O)[C@@]2(O)C(=O)C3=C(O)c4c(O)cccc4[C@@](C)(O)[C@H]3C[C@@H]12,ATCC 10231,30 µg,6 mm
CC(=O)Oc1c(-c2ccc(F)cc2)oc2ccccc2c1=O,-,100 µg/mL,18 mm
Cc1ccc(N2NOC(=O)C2S(=O)(=O)Nc2nc3cc(F)ccc3s2)cc1,MTCC 227,250 µg/mL,21 mm
O=C(O)c1cn(C2CC2)c2cc(N3CCNCC3)c(F)cc2c1=O,WILD TYPE,5 µg,6 mm

2 of the rows above, restated:

smiles,strain,dose,result
C(/C=C/c1ccccc1)=NCCNCCN=C/C=C/c1ccccc1.[Br][Hg][Br],-,30000 µg/mL,26 mm
CC(=O)Oc1c(-c2ccccc2)oc2ccccc2c1=O,-,100 µg/mL,15 mm